Measured values from several laboratories, pooled; numbers as filed in NIAID ChemDB.

Shared fields: host cell toxicity; cell line: MT-2; read-out: CC50

Rows are shuffled and stem from different studies. CCn is the concentration with n% toxicity to the cells. Blank or dashed fields: not listed here.

SMILES,read by,result
COc1ccc(Cc2nn(C(C)(C)C)c(=O)c3ccccc23)cc1,propidium iodide,73.9 µM
Cc1nc(C(CN(C)C)NC(=O)c2ccc(-c3ccc(Cl)cc3)[nH]2)sc1CO,XTT / absorbance,>40 µM
CC(=O)Oc1ccc2[nH]cc(C(=O)C(=O)N3CCN(C(=O)c4ccccc4)CC3)c2c1,XTT,>10 µM
C=C1C(=O)OC2C1CCC(C)C1CCC(=O)C12C,luminescence,>20 µM
Clc1cccc(Cl)c1Cc1nnc(Nc2ccc(COCc3ccncc3)cc2)o1,MTT,6 µM
Cn1nc(Cc2ccc(Cl)c(Cl)c2)c2ccccc2c1=O,propidium iodide,>157 µM
CCCCCCCCCCCCCCCCCCOCCOP(=O)(O)CO[C@H](CO)Cn1cnc2c(N)ncnc21,flow cytometry,0.03 µM
CCC(OCCc1c(C2CC2)n[nH]c1C)C(=O)N[C@@H](Cc1ccccc1)C(=O)N(C)c1ccc2c(c1)OCO2,ATP,>20 µM
CN(C(=O)[C@H](Cc1cc(F)cc(F)c1)NC(=O)CN1c2ccccc2N(CC(=O)N[C@@H](Cc2cc(F)cc(F)c2)C(=O)N(C)c2ccc3c(c2)ncn3C)S1(=O)=O)c1ccc2c(c1)ncn2C,XTT,100 µM
COc1cc(OC)c2ccc(-c3cccc([N+](=O)[O-])c3)nc2c1,MTT,103 µM
COc1ccc(-c2ccc(C(=O)NC(CN)c3ncc(CO)s3)[nH]2)cc1OC,XTT / absorbance,>50 µM
Cc1ccccc1S(=O)(=O)NC(=O)N[C@@H](Cc1cc(F)cc(F)c1)c1ncccc1-c1ccnc(F)c1C,XTT / absorbance,72 µM
Cc1ccc(-c2ccc(C(=O)NC(CN(C)C)c3nc(C)c(CO)s3)[nH]2)cc1F,XTT / absorbance,>40 µM
COC(=O)C(CCCNC(=O)c1ccc(O)c(O)c1)NC(=O)c1ccc(O)c(O)c1,neutral red,>37 µM
N#Cc1ccc(Nc2nnc(Nc3c(Cl)cccc3Cl)o2)cc1,MTT,>100 µM
Cc1nc2sc3c(c2c(-c2ccc4nccn4c2)c1C(OC(C)(C)C)C(=O)O)CCCC3,-,>20 µM
Cc1ccc(Nc2ncc(Cc3c(Cl)cccc3Cl)o2)cc1,MTT,47 µM
O=C1CCCN1[C@H]1C[C@@H](c2cccc([N+](=O)[O-])c2)Nc2ccccc21,ATP,51.58 µM
CCc1cccc2c(C(=O)C(=O)N3CCN(C(=O)c4ccccc4)CC3)c[nH]c12,XTT,>10 µM
COc1ccc(-c2c(C(OC(C)(C)C)C(=O)O)c(C)nc3sc4c(c23)CCCC4)cn1,-,>20 µM
CSc1ccc(Cc2nn(C)c(=O)c3ccc(C)cc23)cc1,propidium iodide,99.5 µM
CCCCCCCC/C=C\CCCCCCCOCCOP(=O)(O)CO[C@H](CO)Cn1cnc2c(N)ncnc21,propidium iodide,0.2 µM
Cc1ccc2c(c1)[C@@H](N1CCCC1=O)C[C@@H](c1cccc([N+](=O)[O-])c1)N2,ATP,53.47 µM
C=C1[C@@H](OC(C)=O)[C@H]2[C@@H](OC(C)=O)[C@](C)(OC(C)=O)C[C@]2(OC(C)=O)[C@H](OC(C)=O)[C@H](C)/C=C/C(C)(C)C(=O)[C@@H](OC(C)=O)[C@H]1OC(C)=O,propidium iodide / ATP / flow cytometry,>100 µM
Cc1ccc(N(C)C(=O)[C@H](Cc2cc(F)cc(F)c2)NC(=O)NS(=O)(=O)N[C@@H](Cc2cc(F)cc(F)c2)C(=O)N(C)c2ccc(C)nc2)cn1,XTT,100 µM
Clc1cccc(Cl)c1Cc1nnc(Nc2ccc(COCc3ccco3)cc2)o1,MTT,9 µM
Cc1ccc2c(=O)n(C)nc(Cc3ccc(Cl)c(Cl)c3)c2c1,propidium iodide,93.5 µM
CCNc1nc(N)nc2c1ncn2[C@H]1C=C[C@@H](CO)C1,-,>100 µM
COP(=O)(c1cc(C)cc(CCC#N)c1)c1c(C(N)=O)[nH]c2ccc(Cl)c(F)c12,MTS,23.5 µM
[N-]=[N+]=NC[C@H]1O[C@@H](n2cnc3c(NC(=O)Nc4ccccc4)ncnc32)[C@H](O)[C@@H]1CC(=O)O,neutral red,812 µM
Nc1cccc([C@@H]2C[C@H](N3CCCC3=O)c3cc(I)ccc3N2)c1,ATP,>115 µM
O=C1NC(=O)C(CSCc2ccccn2)(CSCc2ccccn2)N1,-,>100 µM
CC#C[C@@]1(CO)C=C[C@H](n2cc(C)c(=O)[nH]c2=O)O1,cell count,>100 µM
O=C1NC(=O)C(CSc2ccccc2)(CSc2ccccc2)N1,-,>50 µM
O=C(NCCCC(NC(=O)c1cc(O)c(O)c(O)c1)C(=O)O)c1cc(O)c(O)c(O)c1,neutral red,>29 µM
COc1ccc(N(C)C(=O)[C@H](Cc2ccccc2)NC(=O)Cn2c(=O)n(CC(=O)N[C@@H](Cc3ccccc3)C(=O)N(C)c3ccc(OC)cc3)c3cc(NC(C)=O)ccc32)cc1,XTT,100 µM
CCOC(=O)Cc1c(C)nn(CC(=O)N[C@@H](Cc2ccccc2)C(=O)N(C)c2ccc3c(c2)OCO3)c1C1CC1,ATP,>20 µM
COc1ccc2nc(-c3cccc([N+](=O)[O-])c3)ccc2c1,ATP,>178 µM
O=C(C(=O)N1CCN(C(=O)c2ccccc2)CC1)c1c[nH]c2cc(Cl)ccc12,XTT,>10 µM
O=C(NCCCC[C@H](NC(=O)c1cc(O)c(O)c(O)c1)C(=O)O)c1cc(O)c(O)c(O)c1,neutral red,>38 µM
Cc1cc(C)c2ccc(-c3cccc([N+](=O)[O-])c3)nc2c1,ATP,>180 µM
C#CCN(C(=O)[C@H](Cc1ccccc1)NS(=O)(=O)NC(=O)N[C@@H](Cc1ccccc1)C(=O)N(CCC=C)c1ccc(OC)nc1)c1ccc(OC)nc1,XTT,25 µM
C/C=C(\C)C(=O)O[C@@H]1[C@@H](C)[C@]2(O)[C@@H]3C=C(C)C(=O)[C@H]3CC(C=O)=C[C@H]2[C@@H]2C(C)(C)[C@]12OCC(C)C,luminescence,>50 µM
C=CCOc1nc(N)nc2c1ncn2[C@H]1C=C[C@@H](CO)C1,-,>100 µM
COc1ccc(N(C)C(=O)[C@H](Cc2ccccc2)NC(=O)NS(=O)(=O)N[C@@H](Cc2ccccc2)C(=O)N2CCCC2)cc1,XTT,33.3 µM
Cc1nc2sc3c(c2c(-c2ccc(Cl)cc2)c1[C@H](OC(C)(C)C)C(=O)O)CCCC3,-,>20 µM
CCCCn1nc(Cc2ccc(OC)cc2)c2ccccc2c1=O,propidium iodide,74.1 µM
Cc1cc(C)c2c(c1)N[C@H](c1cccc([N+](=O)[O-])c1)C[C@@H]2N1CCCC1=O,MTT,>50 µM
COC(=O)C(CCNC(=O)/C=C/c1cc(OC)c(OC)c(OC)c1)NC(=O)/C=C/c1cc(OC)c(OC)c(OC)c1,neutral red,>282 µM
O=[N+]([O-])c1cccc(-c2ccc3ccccc3n2)c1,ATP,76.68 µM
Cc1ccccc1S(=O)(=O)NC(=O)N[C@@H](Cc1ccccc1)c1nccn1-c1cccc(OCc2ccccc2)c1,XTT / absorbance,>100 µM
NC[C@@H]1O[C@H](O[C@H]2[C@@H](O)[C@H](O[C@@H]3[C@@H](O)[C@H](N)C[C@H](N)[C@H]3O[C@H]3O[C@H](CN)[C@@H](O)[C@H](O)[C@H]3N)O[C@@H]2CO)[C@H](N)[C@@H](O)[C@@H]1O,trypan blue,>300 µM
O=C(C(=O)N1CCN(C(=O)c2ccccc2)CC1)c1c[nH]c2ccc(Cl)cc12,XTT,>10 µM
CC(C)=CCN1Cc2c(OCCOCCOCCOCCOCCOCCn3c(=O)ccn([C@H]4C=C[C@@H](COP(=O)(O)OP(=O)(O)OP(=O)(O)O)O4)c3=O)ccc3[nH]c(=S)n(c23)C[C@@H]1C,MTT / absorbance,38 µM
Cc1cc(C#N)cc(C)c1Nc1nnc(Nc2ccc(Cl)cc2)o1,MTT,100 µM
Cc1c(CCO)c(C2CC2)nn1CC(=O)N[C@@H](Cc1ccccc1)C(=O)N(C)c1ccc2ncnn2c1,ATP,>20 µM
O=C1NC(=O)C(CSCc2ccccc2)N1,-,>60 µM
CN(C)c1nc(N)nc2c1ncn2[C@H]1C=C[C@@H](CO)C1,-,>100 µM
CNC(=O)NC[C@H]1O[C@@H](n2cnc3c(NC(=O)Nc4ccccc4)ncnc32)[C@H](O[Si](C)(C)C(C)(C)C)[C@@H]1CC(=O)N(C)OC,neutral red,22.6 µM
O=C1NC(=O)C(CSCc2ccc(C(=O)O)cc2)(CSCc2ccc(C(=O)O)cc2)N1,-,>100 µM
CCC(C(=O)N[C@@H](Cc1ccccc1)C(=O)N(C)c1ccc2c(c1)OCO2)n1nc(C2CC2)c(CCO)c1C,ATP,>20 µM
CCCCCCCCCCCCCCCCCCOCCOP(=O)(O)CO[C@H](CO)Cn1cnc2c(N)nc(N)nc21,flow cytometry,1.9 µM
O=C(C(=O)N1CCN(C(=O)c2ccc(F)cc2F)CC1)c1c[nH]c2ccccc12,XTT,>10 µM
Cc1nc2sc3c(c2c(-c2ccc(C(F)F)cc2)c1[C@H](OC(C)(C)C)C(=O)O)CCCC3,-,>20 µM
Cc1nn(C(C)C(=O)N[C@@H](Cc2ccccc2)C(=O)N(C)c2ccc3c(c2)OCO3)c(C2CC2)c1CCO,ATP,>20 µM
Cc1ccc2c(c1)C(O)(Cc1ccccc1Cl)N1CCN=C21,propidium iodide,52.4 µM
Cc1nc(C(CN)NC(=O)C(=O)Nc2ccc3c(c2)OCO3)sc1CO,MTS,≥650 µM
CCOC(C(=O)O)c1c(C)nc2sc3c(c2c1-c1ccc2scnc2c1)CCCC3,-,>20 µM
CCc1nn(CCO)c(C)c1CC(=O)N[C@@H](Cc1ccccc1)C(=O)N(C)c1ccc2c(c1)OCO2,ATP,>20 µM
CCCOc1nc(N)nc2c1ncn2[C@@H]1C=C[C@H](CO)C1,-,97.6 µM
COC(=O)Nc1ccc(-n2ccnc2[C@H](Cc2ccccc2)NC(=O)NS(=O)(=O)c2ccc(Cl)cc2)cc1,XTT / absorbance,>100 µM
Cc1[nH]nc(CC(=O)N[C@@H](Cc2ccccc2)C(=O)N(C)c2ccc3c(c2)OCO3)c1C,ATP,>20 µM
Clc1ccc(Nc2nnc(Nc3c(Cl)cccc3Cl)o2)cc1,MTT,>100 µM
COC(=O)C(CCNC(=O)/C=C/c1cc(O)c(O)c(O)c1)NC(=O)/C=C/c1cc(O)c(O)c(O)c1,neutral red,>69 µM

For reference, 6 entries again:

SMILES	read by	result
Cc1ccccc1S(=O)(=O)NC(=O)N[C@@H](Cc1ccccc1)c1nccn1-c1cccc(OCc2ccccc2)c1	XTT / absorbance	>100 µM
CCC(C(=O)N[C@@H](Cc1ccccc1)C(=O)N(C)c1ccc2c(c1)OCO2)n1nc(C2CC2)c(CCO)c1C	ATP	>20 µM
CCCCCCCCCCCCCCCCCCOCCOP(=O)(O)CO[C@H](CO)Cn1cnc2c(N)nc(N)nc21	flow cytometry	1.9 µM
Cc1ccccc1S(=O)(=O)NC(=O)N[C@@H](Cc1cc(F)cc(F)c1)c1ncccc1-c1ccnc(F)c1C	XTT / absorbance	72 µM
C=C1[C@@H](OC(C)=O)[C@H]2[C@@H](OC(C)=O)[C@](C)(OC(C)=O)C[C@]2(OC(C)=O)[C@H](OC(C)=O)[C@H](C)/C=C/C(C)(C)C(=O)[C@@H](OC(C)=O)[C@H]1OC(C)=O	propidium iodide / ATP / flow cytometry	>100 µM
CSc1ccc(Cc2nn(C)c(=O)c3ccc(C)cc23)cc1	propidium iodide	99.5 µM